The data set has as its system TBP (TATA-binding protein) + TFIIB (PcIIB) + TFIIF + RNA polymerase II core enzyme. Briefly: EMSA. Particulars: TFIIF 20 or 40 ng, RNAPII 100 ng, complex dissociated by anti-CTD antibody 8WG16 (printed SWG16); recombinant protein; protein details: His; label: 5' 32P. (In general: A gel shift assay detects complexes by their altered migration in electrophoresis.)

Construct, isoform or probe ends are uncertain for at least one entry.

For the sequence “GGCTATAAAAGGGGGTGGGGAGGACTTCCCCCCGATATTTTCCCCCACCCC (double strand) [Ad-MLP TATA box probe]”, the binding result is listed as “binds”.

Values taken from PMC9225179.
